Measured values from several laboratories, pooled; numbers as filed in NIAID ChemDB.

Shared fields: host cell toxicity; cell line: MT-4; method: MTT; read-out: CC50

Conditions beyond the fields shown may differ between rows. CCn is the concentration with n% toxicity to the cells.

structure,value
Cc1c(Cc2c(Cl)cccc2Cl)nc(SC/C=C/c2ccc(N(C)C)cc2)[nH]c1=O,54.35 µM
N#Cc1ccc(Nc2nc(Oc3c(Cl)cccc3Cl)ncc2N)cc1,33 µM
O=c1ccn([C@H]2C=C[C@@H](CO)O2)c(=O)n1C/C=C/CN1CCN(CCNC(=S)Nc2ccc(Br)cn2)CC1,>100 µM
CSc1nc(N)c(C)c(C(=O)c2ccc(F)cc2)n1,>90.2 µM
CC1=C(C(=O)Nc2ccccc2F)C2=NN=C(N)C2C(=O)N1,98.9 µg/mL
Cc1cc(C)cc(S(=O)(=O)c2c(C(N)=O)[nH]c3c(Cl)cc(Cl)cc23)c1,>200 µM
CC(=O)Nc1cnc(Oc2c(Cl)cc(Cl)cc2Cl)nc1Nc1ccc(C#N)cc1,33 µM
CCCC[C@H](C)OC(=O)[C@@H](N)c1ccccc1-c1c[nH]c2ccccc12,17 µM
COc1nc(N(C)C)nc(C(C#N)c2c(F)cccc2F)c1C,10 µM
CSCC[C@H](C(=O)N1CCNCC1c1c[nH]c2ccccc12)N1CCCNCC1,>50 µM
Cc1cc(Cn2c(C(=O)c3cc(Cl)cc(Cl)c3)c(C(C)C)c(=O)[nH]c2=O)ccn1,12.07 µg/mL
COc1ccccc1NC(=O)C1=C(C)NC(=O)C2C(N)=NN=C12,>100 µg/mL
COc1cccc2c1c(/C(O)=C/C(=O)C(=O)O)cn2Cc1ccc(F)cc1.COc1cccc2c1c(/C(O)=C/C(=O)C(=O)O)cn2Cc1ccc(F)cc1.[Mg+2].[Mg+2],24.5 µM
Cc1cc(C#N)cc(C)c1Oc1nc(Nc2ccc(C#N)cc2)ncc1SCC(=O)NCC1CC1,20.7 µM
CCc1c(C(C)c2c(F)cccc2F)nc(SC/C=C/c2ccc([N+](=O)[O-])cc2)[nH]c1=O,575 µM
C=CCCc1cccc(Cc2c(CC)c(=O)[nH]c(=O)n2COCC)c1,55 µM
COc1cccc2c1c(/C(O)=C/C(=O)C(=O)O)cn2Cc1cc(F)ccc1F.COc1cccc2c1c(/C(O)=C/C(=O)C(=O)O)cn2Cc1cc(F)ccc1F.[Mg+2].[Mg+2],15 µM
C=CCOc1cccc(Cc2nc(SC(C)C)nc(OC(C)C)c2CC)c1,>100 µM
Cc1cc(C#N)cc(C)c1Oc1ncc(N)c(Nc2ccc(C#N)cc2)n1,35.1 µM
CCCCCC(CCSC)OC(=O)[C@@H](N)c1ccccc1-c1c[nH]c2ccccc12,27 µM
COc1cccc2c1c(/C(O)=C\C(=O)C(=O)O)cn2Cc1cc(F)ccc1F,24 µM
Cc1cc(C#N)cc(C)c1Oc1nc(Nc2ccc(C#N)cc2)ncc1SCC(=O)Nc1ccc(S(C)(=O)=O)cc1,>208.4 µM
CC1=C(C(=O)Nc2ccc(Br)cc2)C2=NN=C(N)C2C(=O)N1,94.6 µg/mL
Nc1cc(O)ccc1-c1n[nH]c(=S)n1N,12 µg/mL
COc1nc(N(C)C)nc(Cc2c(F)cccc2F)c1C,67 µM
Oc1ccc(-c2nnc3sc(-c4cnccn4)nn23)c(Cl)c1Cl,2.11 µg/mL
COc1ccc(CSc2nc(C(=O)c3ccc(Br)cc3)c(C)c(=O)[nH]2)cc1,201 µM
O=c1ccn([C@H]2C=C[C@@H](CO)O2)c(=O)n1CC#CCN1CCN(CCNC(=S)Nc2ccc(Br)cn2)CC1,>100 µM
CCOC(=O)c1nnsc1Nc1ccccc1Nc1snnc1C(=O)OCC,>297.5 µM
Oc1ccc(-c2nnc3sc(-c4cccnc4)nn23)c(Cl)c1Cl,80.05 µg/mL
COc1cccc(OC)c1C(=O)c1nc(N(C)C)nc(OC)c1C,8 µM
Cc1cc(=O)oc2c3c(c4c(c12)OC(C)(C)C=C4)OC(C)(C)C=C3,34 µM
C=Cc1cc(N(C)C)nc(SC)n1,57 µM
C#C[C@@]1(O)[C@@H](CO)O[C@@H](n2ccc(N)nc2=O)[C@@H]1O,0.02 µM
C=CCOc1cccc(Cc2[nH]c(=O)[nH]c(=O)c2CC)c1,74 µM
COc1ccc(CSc2nc(C(=O)c3ccc(Cl)cc3)c(C)c(=O)[nH]2)cc1,152 µM
COc1ccc(NC(=S)Nc2nc3ccccc3s2)cc1,68 µM
Nc1nc(NC2CC2)c2ncn([C@H]3CO[C@@H](CO)O3)c2n1,>250 µM
C=C(C)CNC(=S)Nc1nc2ccccc2s1,100 µM
CCCCCCCCCCc1nccn(COCCO)c1=O,>100 µM
CC(=O)Nc1cnc(Oc2c(C)cc(C=O)cc2C)nc1Nc1ccc(C#N)cc1,236 µM
CCc1c(C(=O)c2cc(C)cc(C)c2)n(Cc2ccc([N+](=O)[O-])cc2)c(=O)[nH]c1=O,4.63 µg/mL
C=C(C)[C@]1(O)C[C@@H](C)[C@@]2(O)[C@H]([C@H]1OC(=O)/C=C/C=C/CCCCC)[C@@H]1O[C@]1(CO)[C@@H](O)[C@]1(O)C(=O)C(C)=C[C@H]12,62.7 µM
Cc1cc(Br)cc(C)c1Oc1ncc([N+](=O)[O-])c(Nc2ccc(C#N)cc2)n1,≥202 µM
CC1=C(C(=O)Nc2cc(C)ccc2C)C2=NN=C(N)C2C(=O)N1,45.6 µg/mL
CC(=O)Nc1cnc(Oc2c(Br)cc(Br)cc2Br)nc1Nc1ccc(C#N)cc1,≥118 µM
Cc1c(C2(c3c(F)cccc3F)CC2)nc(SC(C)C)[nH]c1=O,>0.01 µM
CC(C)c1c(C(=O)c2cc(F)cc(F)c2)n(Cc2ccccn2)c(=O)[nH]c1=O,49.87 µg/mL
CC1(C)C(=O)CC[C@]2(C)[C@@H]1CC[C@@]13CC[C@@H](C[C@H]12)C([C@@H](O)CO)C3,>20 µg/mL
O=c1ccn([C@H]2C=C[C@@H](CO)O2)c(=O)n1CCCCCCN1CCN(CCNC(=S)Nc2ccc(Br)cn2)CC1,>100 µM
CCc1c(C(=O)c2cc(C)cc(C)c2)n(Cc2ccccc2)c(=O)[nH]c1=O,5.78 µg/mL
Oc1ccc(-c2nn3c(-c4ccc(O)c(Cl)c4Cl)nnc3s2)c(Cl)c1Cl,67.8 µg/mL
C=CCCc1cccc(Cc2[nH]c(=O)[nH]c(=O)c2CC)c1,66 µM
Nn1c(-c2ccc(O)c(Cl)c2Cl)n[nH]c1=S,72.83 µg/mL
N#Cc1cc2[nH]c3ccccc3c2n(-c2ccc([N+](=O)[O-])cc2)c1=O,>32 µM
Cc1cn([C@H]2C=C[C@@H](CO)O2)c(=O)[nH]c1=O,>100 µM
Cc1cc(C#N)cc(C)c1Oc1nc(Nc2ccc(C#N)cc2)ncc1SCC(=O)NC1CC1,27.1 µM
COc1ccc(CSc2nc(C(=O)c3ccc(F)cc3)c(C)c(=O)[nH]2)cc1,225 µM
CCc1c(Cc2c(Cl)cccc2Cl)nc(SC/C=C/c2ccc(OC)cc2)[nH]c1=O,0.19 µM
Cc1cc(C#N)cc(C)c1Oc1nc(Nc2ccc(C#N)cc2)ncc1SCC(=O)NCCN1CCN(C(=O)OC(C)(C)C)CC1,20.2 µM
Cc1ccc(N2C(=O)CS/C2=N\c2nc3ccccc3s2)cc1,>100 µM
Cc1ccnc2c1NC(=O)c1cccnc1N2C1CC1,>15 µM
Cc1cc(-c2ccc(C#N)cc2)cc(C)c1Oc1ccnc(S(=O)(=O)CC(=O)Nc2ccc(F)cc2)n1,9.15 µM
CC(C)COC12CCC(C(=O)C1)C1C(=O)N(CCCCN3CCN(c4ccccc4)CC3)C(=O)C12,84 µM
Cc1cc(/C=C/C#N)cc(C)c1Oc1ccnc(S(=O)(=O)CC(=O)NCc2ccc(Cl)cc2)n1,1.43 µM
Cc1cc(C)cc(C(=O)c2c(C(C)C)c(=O)[nH]c(=O)n2Cc2ccnc(Cl)c2)c1,17.1 µg/mL
N#Cc1ccc(Nc2nc(N)nc(Cc3c(F)ccc(F)c3F)n2)cc1,>0.66 µM
Cc1cc(C#N)cc(C)c1Oc1nc(Nc2ccc(C#N)cc2)ncc1SCC(=O)NCC1CCCO1,24.7 µM
O=c1ccn([C@H]2C=C[C@@H](CO)O2)c(=O)n1CCCN1CCN(CCNC(=S)Nc2ccc(Br)cn2)CC1,>100 µM
COC(=O)CSc1cnc(Nc2ccc(C#N)cc2)nc1Oc1c(C)cc(C#N)cc1C,33.2 µM
C=CCCc1cccc(Cc2c(CC)c(=O)n(COCC)c(=O)n2COCC)c1,45 µM
Cc1cc(C(=O)c2c(C(C)C)c(=O)[nH]c(=O)n2Cc2ccncc2)cc([N+](=O)[O-])c1,46 µg/mL
Cc1cn(CCCCO[C@H]2C=C[C@@H](CO)O2)c(=O)[nH]c1=O,33 µg/mL
CSCC[C@H](C)OC(=O)[C@@H](NC(=O)CSC)c1ccccc1-c1c[nH]c2ccccc12,30 µM
Cc1cc(Cl)cc(C(=O)c2c(C(C)C)c(=O)[nH]c(=O)n2Cc2cc(C)nc(C)c2)c1,8.68 µg/mL
CCc1c(C(C)c2c(F)cccc2F)nc(SC/C=C/c2ccc(OC)cc2)[nH]c1=O,5.54 µM
Cc1cn([C@H]2C[C@H](N=[N+]=[N-])[C@@H](CO)O2)c(=O)[nH]c1=O,45 µM
COC(=O)CCSc1cnc(Nc2ccc(C#N)cc2)nc1Oc1c(C)cc(C#N)cc1C,34.7 µM
S=C(NCCN1CCNCC1)Nc1ccc(Br)cn1,>100 µM
S=C(Nc1ccc(Cl)c(Cl)c1)Nc1nc2ccccc2s1,15 µM
C=CCNC(=O)CSc1cnc(Nc2ccc(C#N)cc2)nc1Oc1c(C)cc(C#N)cc1C,30.4 µM
CCc1c(Cc2c(Cl)cccc2Cl)nc(SC/C=C/c2ccc(C#N)cc2)[nH]c1=O,>34.82 µM
CC1=C2C[C@]3(O)[C@@H](C)CCC[C@@]3(C)C[C@@H]2OC1=O,96.77 µg/mL
COc1cc(C(C#N)c2c(F)cccc2F)nc(N(C)C)n1,40 µM
Cc1cc(-c2ccc(C#N)cc2)cc(C)c1Oc1ccnc(S(=O)(=O)CC(=O)NC(C)c2ccc(F)cc2)n1,4.55 µM
C=C1C(=O)O[C@H]2C[C@H](C)[C@]3(O)C[C@H]4O[C@H]4[C@@H]3C[C@H]12,29.1 µg/mL

The last 5 rows once more:

structure	value
CCc1c(Cc2c(Cl)cccc2Cl)nc(SC/C=C/c2ccc(C#N)cc2)[nH]c1=O	>34.82 µM
CC1=C2C[C@]3(O)[C@@H](C)CCC[C@@]3(C)C[C@@H]2OC1=O	96.77 µg/mL
COc1cc(C(C#N)c2c(F)cccc2F)nc(N(C)C)n1	40 µM
Cc1cc(-c2ccc(C#N)cc2)cc(C)c1Oc1ccnc(S(=O)(=O)CC(=O)NC(C)c2ccc(F)cc2)n1	4.55 µM
C=C1C(=O)O[C@H]2C[C@H](C)[C@]3(O)C[C@H]4O[C@H]4[C@@H]3C[C@H]12	29.1 µg/mL